Results: the supplement of paper PMC3578754
Fold change is the IC50 on the isolate divided by the IC50 on a reference virus; 1 = unchanged, higher = more resistant. Changes are given against the subtype B consensus. No active / inactive call. The values were gathered from many studies (numbered anew) with different assays, which the source does not name. Most viruses are clinical isolates; some are laboratory strains or clones with known resistance changes. Isolates with mixed residues are left out; stretches that were not sequenced show no change. Round top values that many isolates share are read here as limits; other very high values and 0.1 may be limits too.

Compound: Cc1cn([C@H]2C[C@H](N=[N+]=[N-])[C@@H](CO)O2)c(=O)[nH]c1=O [zidovudine]
Assay: fold change of IC50 against reference virus; higher = more resistant
Description: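 Cell-culture drug susceptibility tests of virus bearing the reverse transcriptase of each isolate, gathered from many studies.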

Compared with “HIV-1 isolate 700 (reverse transcriptase changes: K122E F214L T215Y A272P K277R A376T A400T D460N S468T H483Y K512Q S519N, study 72)”, “HIV-1 isolate 729 (reverse transcriptase changes: D67N K70R K122E F214L T215Y A272P K277R A376T A400T D460N S468T H483Y K512Q S519N, study 143)” is higher in “fold change of IC50 against reference virus” value (shortened to “fold change of IC50”): 4.4 for the first, 31 for the second.

Compared with “HIV-1 isolate 763 (reverse transcriptase changes: M41L K122E L210W F214L A272P K277R A376T A400T D460N S468T H483Y K512Q S519N, study 126)”, “HIV-1 isolate 851 (reverse transcriptase changes: K122E F214L T215Y A272P K277R A376T A400T D460N S468T H483Y K512Q S519N, study 126)” is higher in “fold change of IC50” value: 5 for the first, 14 for the second.

Going from “HIV-1 isolate 874 (reverse transcriptase changes: K122E L210W F214L T215Y A272P K277R A376T A400T D460N S468T H483Y K512Q S519N, study 103)” to “HIV-1 isolate 889 (reverse transcriptase changes: K102Q S162C M184V K277R, study 1)”, the “fold change of IC50” value falls from 42 to 1.

First: HIV-1 isolate 906 (reverse transcriptase changes: M41L D67N K70R E89K K122E F214L T215Y A272P K277R M357T A376T A400T N447S D460N S468T S519N, study 103)
Second: HIV-1 isolate 910 (reverse transcriptase changes: M41L D67N K70R K122E S156A F214L T215Y A272P K277R M357T A376T A400T N447S D460N S468T S519N, study 103)
The “fold change of IC50” value of the first is lower: 1 for the first, 3 for the second.

Going from “HIV-1 isolate 912 (reverse transcriptase changes: K122E F214L A272P K277R A376T A400T D460N S468T H483Y K512Q S519N, study 103)” to “HIV-1 isolate 924 (reverse transcriptase changes: M41L D67N K70R K122E F214L T215Y K219Q A272P K277R A376T A400T D460N S468T H483Y K512Q S519N, study 143)”, the “fold change of IC50” value rises from 1 to 180.

Compared with “HIV-1 isolate 925 (reverse transcriptase changes: D67N K70R K122E F214L T215Y K219Q A272P K277R M357T A376T A400T N447S D460N S468T S519N, study 103)”, “HIV-1 isolate 927 (reverse transcriptase changes: K122E Q161L F214L A272P K277R M357T A376T A400T N447S D460N S468T S519N, study 103)” is lower in “fold change of IC50” value: 29 for the first, 1 for the second.

First: HIV-1 isolate 937 (reverse transcriptase changes: K122E F214L A272P K277R A376T A400T D460N S468T H483Y K512Q S519N, study 143)
Second: HIV-1 isolate 954 (reverse transcriptase changes: M41L D67N K70R K122E F214L T215Y A272P K277R A376T A400T D460N S468T H483Y K512Q S519N, study 3)
The “fold change of IC50” value of the first is lower: 1 for the first, 180 for the second.

First: HIV-1 isolate 956 (reverse transcriptase changes: M41L D67N K70R K122E M184V L210W F214L T215Y A272P K277R A376T A400T D460N S468T H483Y K512Q S519N, study 126)
Second: HIV-1 isolate 975 (reverse transcriptase changes: D67N K122E M184V G196E Q207D L210W R211K T215Y A272P K277R E300Q G333E T338S K347R R356K, study 34)
The “fold change of IC50” value of the first is lower: 9 for the first, 370 for the second.

Compared with “HIV-1 isolate 1002 (reverse transcriptase changes: K102Q S162C T215Y, study 39)”, “HIV-1 isolate 1008 (reverse transcriptase changes: M41L D67N K122E M184V H208Y L210W R211K T215Y A272P K277R I293V E297A R356K M357T G359S, study 34)” is higher in “fold change of IC50” value: 16 for the first, 100 for the second.

Compared with “HIV-1 isolate 1031 (reverse transcriptase changes: D67N K70R K122E F214L T215Y K219Q A272P K277R A376T A400T D460N S468T H483Y K512Q S519N, study 3)”, “HIV-1 isolate 1044 (reverse transcriptase changes: W88S K122E F214L A272P K277R M357T A376T A400T N447S D460N S468T S519N, study 67)” is lower in “fold change of IC50” value: 120 for the first, 1 for the second.

Going from “HIV-1 isolate 1108 (reverse transcriptase changes: D67N K70R I135T S162C R211K T215Y, study 48)” to “HIV-1 isolate 1132 (reverse transcriptase changes: M41L D67N K70R K122E M184V T200I E203K L210W R211K K219E L228H V245E L283I T286P K311R G359S, study 34)”, the “fold change of IC50” value falls from 125 to 80.

Going from “HIV-1 isolate 1139 (reverse transcriptase changes: M41L K122E F214L T215Y A272P K277R A376T A400T D460N S468T H483Y K512Q S519N, study 3)” to “HIV-1 isolate 1140 (reverse transcriptase changes: K122E L210W F214L A272P K277R A376T A400T D460N S468T H483Y K512Q S519N, study 103)”, the “fold change of IC50” value falls from 60 to 0.3.

Going from “HIV-1 isolate 1159 (reverse transcriptase changes: M41L K122E F214L A272P K277R A376T A400T D460N S468T H483Y K512Q S519N, study 143)” to “HIV-1 isolate 1179 (reverse transcriptase changes: K122E L210W F214L A272P K277R A376T A400T D460N S468T H483Y K512Q S519N, study 126)”, the “fold change of IC50” value falls from 4 to 2.

First: HIV-1 isolate 1219 (reverse transcriptase changes: K122E F214L A272P K277R M357T A376T A400T N447S D460N S468T S519N, study 103)
Second: HIV-1 isolate 1220 (reverse transcriptase changes: M41L D67N K70R K122E M184V F214L T215Y A272P K277R M357T, study 34)
The “fold change of IC50” value of the first is lower: 1 for the first, 7 for the second.

Compared with “HIV-1 isolate 1239 (reverse transcriptase changes: R83K K122E I135T T165I D177E R211K T286P I293V E297K A376T T386I A400T, study 103)”, “HIV-1 isolate 1248 (reverse transcriptase changes: M41L D67N K70R K122E M184V F214L T215Y A272P K277R G333E M357T, study 34)” is higher in “fold change of IC50” value: 1 for the first, 170 for the second.

Going from “HIV-1 isolate 1318 (reverse transcriptase changes: K122E F214L T215Y A272P K277R A376T A400T D460N S468T H483Y K512Q S519N, study 143)” to “HIV-1 isolate 1322 (reverse transcriptase changes: M41L D67N K70R K122E L210W F214L T215Y K219Q A272P K277R A376T A400T D460N S468T H483Y K512Q S519N, study 103)”, the “fold change of IC50” value rises from 16 to 340.

First: HIV-1 isolate 1376 (reverse transcriptase changes: D67N K70R K122E F214L T216F K219Q A272P K277R A376T A400T D460N S468T H483Y K512Q S519N, study 3)
Second: HIV-1 isolate 1381 (reverse transcriptase changes: K122E F214L A272P K277R A376T A400T D460N S468T H483Y K512Q S519N, study 126)
The “fold change of IC50” value of the first is higher: 150 for the first, 1 for the second.

Compared with “HIV-1 isolate 1392 (reverse transcriptase changes: M41L D67N K70R K122E M184V F214L T215Y A272P K277R A376T A400T D460N S468T H483Y K512Q S519N, study 126)”, “HIV-1 isolate 1397 (reverse transcriptase changes: M41L K122E M184V L210W F214L T215Y A272P K277R A376T A400T D460N S468T H483Y K512Q S519N, study 126)” is higher in “fold change of IC50” value: 3 for the first, 5 for the second.

Compared with “HIV-1 isolate 1408 (reverse transcriptase changes: K102Q S162C T215Y K277R, study 1)”, “HIV-1 isolate 1444 (reverse transcriptase changes: K70R K102Q S162C T215F K219Q K277R, study 98)” is higher in “fold change of IC50” value: 5 for the first, 8.4 for the second.

First: HIV-1 isolate 1489 (reverse transcriptase changes: M41L K70R K122E F214L A272P K277R A376T A400T D460N S468T H483Y K512Q S519N, study 143)
Second: HIV-1 isolate 1498 (reverse transcriptase changes: M41L K122E F214L T215Y A272P K277R A376T A400T D460N S468T H483Y K512Q S519N, study 143)
The “fold change of IC50” value of the first is lower: 9 for the first, 64 for the second.

First: HIV-1 isolate 1505 (reverse transcriptase changes: M41L I135T E204K T215Y I293V E297K D324P I329L A360V K431N V435A D460N S468P L491S, study 103)
Second: HIV-1 isolate 1545 (reverse transcriptase changes: D67N K70R K122E F214L T215Y K219Q A272P K277R A376T A400T D460N S468T H483Y K512Q S519N, study 143)
The “fold change of IC50” value of the first is lower: 9.2 for the first, 120 for the second.
